For part of these data: Where a protein sequence is shown, tags need not be part of it.
Tests used:
[1] = molecular target: T1, Fur (UniProt P0C6C8); test: DNase I footprinting; conditions: DNase I footprinting with FAM/HEX-labeled probes and RQ1 DNase I; pH and temperature not given (cites earlier work); recombinant protein; residues 1-150; protein details: 6xHis (pET28a); label: FAM or HEX 5' (M13 primers); probe letters rebuilt from the primers and the genome
T1 sequence (looked up): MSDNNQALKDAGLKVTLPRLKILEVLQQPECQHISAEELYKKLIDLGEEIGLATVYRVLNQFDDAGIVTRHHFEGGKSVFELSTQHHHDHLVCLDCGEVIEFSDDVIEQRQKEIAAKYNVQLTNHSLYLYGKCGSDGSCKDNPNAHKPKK

[2] = molecular target: HapR (UniProt Q4F6W7); test: DNase I footprinting; conditions: […]; […], pH and temperature not given ([…]; recombinant protein; residues 1-203; protein details: 6xHis (pET28a); label: FAM or HEX 5' (M13 primers); probe letters rebuilt from the primers and the genome

“CAGGAAACAGCTATGACGATGTCGTAATTCGGTTGAGTGATCATGATGGGTCGAAATGGTGAAAGCGGAGAAAACTCGCTGATAATGATAAAAAACTAATCAAGAACGCTAGTTTATTGTTTTCACTTATCATTGGGTAGTGATCAAAGACTTAACAGTGATAATTATTCACAAAAATAAGTTAGTAAAATCAGCATCACAGACATTTTTTACTGCTGGGTGCTGGATCATGCGTTCAGCGAAGATGACATAATACTCCTCTTTAATCTCATCCACATGTCCGATGAGTTTCAATGATGATTCCGCATCCACTTCTGAGACATAAAAAGAGGGAGCCATAAACACGACTGGCCGTCGTTTTAC (double strand) [hlyU promoter fragment]”: binds [1]; binds [2].
“CAGGAAACAGCTATGACGAGGCAAATCACTGAACAAAGTGCTCTTACCAGTTACAATAATTTAACAACGATAGCATCATTATTAGGCAGCAACCATGATGCATTGATTACTGCTGCCTTACACGAAGTCTAGGGCACTCAGGGTATGAATAAAACACTCTCTAAGCTTTATCAACCGAATATTGTGAAGTGGGCACTAAACTCTTGGCCTCCATTTTGGGGCGCTGGGATCCATATCGAATCGATCAGTGCGGATTTTCGCGAAGTCCGCATCCGCTTGAAATTACGCTGGTGGAATAAAAACGCCAACCGGACTCAATACGGCGGCAGCATTTTCTCACTGACGGATCCCGTTTATGCCTTGATGCACTGGCCGTCGTTTTAC (double strand) [fur promoter fragment]”: binds [2].

— PMC6018088
